Data from paper PMC4791841, “Nanomolar Inhibitors of Trypanosoma brucei RNA Triphosphatase” (mBio, 2016).

Sequences of proteins named here, by UniProt entry; tags and fusion partners are left off. Residues count along the entry.
UniProt Q582T2, 1-253: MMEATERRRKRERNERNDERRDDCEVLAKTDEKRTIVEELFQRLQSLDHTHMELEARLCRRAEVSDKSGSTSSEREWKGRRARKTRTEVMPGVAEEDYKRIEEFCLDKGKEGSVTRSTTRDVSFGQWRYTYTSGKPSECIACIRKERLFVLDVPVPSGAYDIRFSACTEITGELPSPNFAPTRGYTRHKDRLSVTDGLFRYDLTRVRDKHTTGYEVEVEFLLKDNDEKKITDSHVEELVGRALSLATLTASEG

Molecular target: TbCet1 (Trypanosoma brucei brucei, UniProt Q582T2)
Settings: read-out: IC50 TbCet1 by 32P assay; 2.2 nM TbCet1, 0.2 mM ATP, 2 mM Mn2+, 10 min 37°C

Structure (SMILES) | IC50
O=C(/C=C/c1ccccc1)O[C@@H]1C[C@@](O)(C(=O)O)C[C@@H](O)[C@@H]1O | 210 µM
O=C(/C=C/c1ccc(O)cc1)O[C@@H]1C[C@](O)(C(=O)O)C[C@@H](O)[C@H]1O | > 500 µM
